This assay relates to Cryptosporidium parvum. In words: Antiparasitic activity against Cryptosporidium parvum Iowa oocyst infected in human HCT-8 cells assessed as reduction in asexual replication pre-infected with cells for 3 hrs followed by compound addition and measured after 48 hrs by staining based automated fluorescence microscopic analysis. Particulars: strain Iowa.

What is called EC50 is the midpoint of the concentration-response curve.

In the case of `CCOP(=O)(CC)Oc1ccc(-c2nc(NCc3ccc(F)cc3)c3c(CC)nn(C)c3n2)cc1` (stereo unspecified), the 50% effective concentration (EC50) was found to be 4.4 µM.

For the origin of these results see ChEMBL document CHEMBL6087459 (J Med Chem, 2025).
